For one compound, IC50 results are on record in ChEMBL document CHEMBL1649436, “Antiviral activity of MK-4965, a novel nonnucleoside reverse transcriptase inhibitor” (Antimicrob Agents Chemother, 2009).

What is called IC50 is the midpoint of a concentration-inhibition curve. Lower therefore signals inhibition by little substance.

In test [1] the target is Human immunodeficiency virus type 1 reverse transcriptase (Human immunodeficiency virus 1, UniProt Q72547, K103N). The test can be described thus: Inhibition of HIV1 isolate R8 reverse transcriptase K103N mutant after 90 mins by electrochemiluminescence analysis.
Test [2] concerns the target Human immunodeficiency virus type 1 reverse transcriptase (Human immunodeficiency virus 1, UniProt Q72547, Y181C). The experiment in a line: Inhibition of HIV1 isolate R8 reverse transcriptase Y181C mutant after 90 mins by electrochemiluminescence analysis.

Regarding `Cc1cc(C#N)cc(C)c1Oc1nc(Nc2ccc(C#N)cc2)nc(N)c1Br` [ETRAVIRINE], the results for the 50% inhibitory concentration (IC50) in test [1] and in test [2] were 1.3 nM and 1.96 nM, respectively.
